# Reference: patent US20100221709A1, “METHODS FOR IDENTIFYING AGENTS THAT MODULATE APOPTOSIS IN CELLS THAT OVER-EXPRESS A BCL-2 FAMILY MEMBER PROTEIN” (priority 2005, published 2010)
# System: TABX2S cells (over-expressing Bcl-xL)
# Text: Briefly, a DNA fragment encoding the full-length mouse Bcl-xL cDNA was isolated from the plasmid pBS-BCL-xL (Tzung et al., Am. J. Path. 150:1985-1995 (1997), incorporated herein by reference in its entirety) by digestion with the restriction endonuclease EcoRI. This EcoRI fragment was cloned into the EcoRI site of the mammalian expression vector pSFFV (Fuhlbrigge et al., Proc. Nat. Acad. Sci. USA 85:5649-5653 (1988)) in both sense and antisense orientations, to form expression plasmids pSFFV-Bc/-xL-WT(sense) or pSFFV-Bc/-xL(antisense), respectively. The tumorigenic murine hepatocyte cell line TAMH was transfected by lipofection (Lipofectamine, Life Technologies, Rockville, Md., according to the manufacturer's recommendations) with the plasmids pSFFV-neo (the control), pSFFV-Bc/-xL-WT(sense) or pSFFV-Bc/-xL(antisense). Characterization of and culture conditions for the cell lines have been previously published (Wu et al., Proc. Nat. Acad. Sci. USA 91:674-78 (1994); Wu et al., Cancer Res. 54:5964-5973 (1994)). […]
# Selected transfectants were then tested for whole cell sensitivity to several apoptotic agents. […] Cell viability was determined by trypan blue dye exclusion. The percentage of viable cells was calculated by the number of viable cells (treated with a particular apoptogenic agent) divided by the number in the control group (untreated). […]
substance,measurement,value
antimycin A,LD50,1.2 µM
